Assays:
Assay in all cases: cell-based or functional assay
[1] = target: SARS-CoV-2 spike (S) protein, Omicron sublineage BA.4/5 (SARS-CoV-2)
[2] = target: SARS-CoV-2 spike (S) protein, Omicron sublineage BQ.1 (SARS-CoV-2)
[3] = target: SARS-CoV-2 spike (S) protein, Omicron sublineage XBB (SARS-CoV-2)
[4] = target: SARS-CoV-2 spike (S) protein, Omicron sublineage BQ.1.1 (SARS-CoV-2)
[5] = target: SARS-CoV-2 spike (S) protein, Omicron sublineage BA.2.75.2 (SARS-CoV-2)
[6] = target: SARS-CoV-2 Omicron XBB spike protein (SARS-CoV-2, UniProt P0DTC2 14-1273)
[7] = target: SARS-CoV-2 Omicron BQ.1.1 spike protein (SARS-CoV-2, UniProt P0DTC2 14-1273)

Binder	IC50, pseudovirus neutralization [1] [µg/mL]	IC80, pseudovirus neutralization [1] [µg/mL]	IC50, pseudovirus neutralization [2] [µg/mL]	IC80, pseudovirus neutralization [2] [µg/mL]	IC50, pseudovirus neutralization [3] [µg/mL]	IC80, pseudovirus neutralization [3] [µg/mL]	IC50, pseudovirus neutralization [4] [µg/mL]	IC80, pseudovirus neutralization [4] [µg/mL]	IC50, pseudovirus neutralization [5] [µg/mL]	IC80, pseudovirus neutralization [5] [µg/mL]	IC50, pseudovirus neutralization [6] [µg/mL]	IC80, pseudovirus neutralization [6] [µg/mL]	IC50, pseudovirus neutralization [7] [µg/mL]	IC80, pseudovirus neutralization [7] [µg/mL]
MX1064 (trispecific antibody) chain 1: EIVMTQSPAILSVSPGERATLSCRASQSVAINLAWYQQKPGQAPRLLIYAASSRATGIPGRFSGSGSETNFTLTISSLQSGDFAVYYCQQYITWPPSYTFGQGTKLEIKGGSSGQTVVTQEPSFSVSPGGTVTLTCGLSSGSVSTAYFPSWYQQTPGQAPRTLIYGTNTRSSGVPDRFSGSILGNKAALTITGAQADDESDYYCVLYMGRGIVVFGGGTKLTVLGGGGSGGSGSGGGGSASGSGQVQLVESGGGVVQPGRSLRLSCAASGFTLSSYGMHWVRQAPGKGLEWVAVISYDGSNKYYVDSVKGRFTISRDNSKNTLYLQMNSLRAEDTAVYYCRWAYWELLPDYYYGMDVWGQGTTVTVSSGGSSGEVQLVESGGALIQPGGSLRLSCAASGIIVSANYMSWVRQAPGKGLEWVSVIYSGGSTFYADSVKGRFTISRDNSKNTLYLEMNSLRAEDTAVYYCARDAPILGVSDWGQGTLVTVSSASGGSGDKTHTCPPCPAPELLGGPSVFLFPPKPKDTLMISRTPEVTCVVVDVSHEDPEVKFNWYVDGVEVHNAKTKPREEQYNSYVVSVLTVLHQDWLNGKEYKCKVSNKALPAPIEKTISKAKGQPREPQVYTLPPCRDELTKNQVSLWCLVKGFYPSDIAVEWESNGQPENNYKTTPPVLDSDGSFFKKLTVDKSRWQQGNVFSCSVLHEALHSHYTQKSLSLSPG chain 2: DTVMTQSPLSLPVTPGEPASISCRSSQSLLNSNGYNYLDWYVQKPGQSPQLLIYLGSNRASGVPDRFSGSGSGTDFTLKISRVEAEDVGVYYCMQPLQTPLFTFGPGTKVEIKGGSSGEIVMTQSPAILSVSPGERATLSCRASQSVAINLAWYQQKPGQAPRLLIYAASSRATGIPGRFSGSGSETNFTLTISSLQSGDFAVYYCQQYITWPPSYTFGQGTKLEIKGGGGSGGSGSGGGGSASGSGEVQLVESGGALIQPGGSLRLSCAASGIIVSANYMSWVRQAPGKGLEWVSVIYSGGSTFYADSVKGRFTISRDNSKNTLYLEMNSLRAEDTAVYYCARDAPILGVSDWGQGTLVTVSSGGSSGQVTLRESGPALVKPTQTLTLTCTFSGFSLSTRGVCVSWIRQPPGKALEWLAFIDWDDDKYYNTSLKTRLTISKDTSKNQVVLTMTNVHPVDTATYYCARISSHHGSSWCTTFDYWGQGALVTVSAASGGSGDKTHTCPPCPAPELLGGPSVFLFPPKPKDTLMISRTPEVTCVVVDVSHEDPEVKFNWYVDGVEVHNAKTKPREEQYNSYVVSVLTVLHQDWLNGKEYKCKVSNKALPAPIEKTISKAKGQPREPQVCTLPPSRDELTKNQVSLSCAVKGFYPSDIAVEWESNGQPENNYKTTPPVLDSDGSFFLVSKLTVDKSRWQQGNVFSCSVLHEALHSHYTQKSLSLSPG	0.00574	0.0178	0.0156	0.0429	0.00612	0.0247	0.013	0.0326	0.0144	0.0351	–	–	–	–
MX1067 (trispecific antibody) chain 1: EIVMTQSPAILSVSPGERATLSCRASQSVAINLAWYQQKPGQAPRLLIYAASSRATGIPGRFSGSGSETNFTLTISSLQSGDFAVYYCQQYITWPPSYTFGQGTKLEIKGGSSGQTVVTQEPSFSVSPGGTVTLTCGLSSGSVSTAYFPSWYQQTPGQAPRTLIYGTNTRSSGVPDRFSGSILGNKAALTITGAQADDESDYYCVLYMGRGIVVFGGGTKLTVLGGGGSGGSGSGGGGSASGSGQVQLVESGGGVVQPGRSLRLSCAASGFTLSSYGMHWVRQAPGKGLEWVAVISYDGSNKYYVDSVKGRFTISRDNSKNTLYLQMNSLRAEDTAVYYCRWAYWELLPDYYYGMDVWGQGTTVTVSSGGSSGEVQLVESGGALIQPGGSLRLSCAASGIIVSANYMSWVRQAPGKGLEWVSVIYSGGSTFYADSVKGRFTISRDNSKNTLYLEMNSLRAEDTAVYYCARDAPILGVSDWGQGTLVTVSSASGGSGDKTHTCPPCPAPELLGGPSVFLFPPKPKDTLMISRTPEVTCVVVDVSHEDPEVKFNWYVDGVEVHNAKTKPREEQYNSYVVSVLTVLHQDWLNGKEYKCKVSNKALPAPIEKTISKAKGQPREPQVYTLPPCRDELTKNQVSLWCLVKGFYPSDIAVEWESNGQPENNYKTTPPVLDSDGSFFKKLTVDKSRWQQGNVFSCSVLHEALHSHYTQKSLSLSPG chain 2: QTVVTQEPSFSVSPGGTVTLTCGLSSGSVSTAYFPSWYQQTPGQAPRTLIYGTNTRSSGVPDRFSGSILGNKAALTITGAQADDESDYYCVLYMGRGIVVFGGGTKLTVLGGSSGDTVMTQSPLSLPVTPGEPASISCRSSQSLLNSNGYNYLDWYVQKPGQSPQLLIYLGSNRASGVPDRFSGSGSGTDFTLKISRVEAEDVGVYYCMQPLQTPLFTFGPGTKVEIKGGGGSGGSGSGGGGSASGSGQVTLRESGPALVKPTQTLTLTCTFSGFSLSTRGVCVSWIRQPPGKALEWLAFIDWDDDKYYNTSLKTRLTISKDTSKNQVVLTMTNVHPVDTATYYCARISSHHGSSWCTTFDYWGQGALVTVSAGGSSGQVQLVESGGGVVQPGRSLRLSCAASGFTLSSYGMHWVRQAPGKGLEWVAVISYDGSNKYYVDSVKGRFTISRDNSKNTLYLQMNSLRAEDTAVYYCRWAYWELLPDYYYGMDVWGQGTTVTVSSASGGSGDKTHTCPPCPAPELLGGPSVFLFPPKPKDTLMISRTPEVTCVVVDVSHEDPEVKFNWYVDGVEVHNAKTKPREEQYNSYVVSVLTVLHQDWLNGKEYKCKVSNKALPAPIEKTISKAKGQPREPQVCTLPPSRDELTKNQVSLSCAVKGFYPSDIAVEWESNGQPENNYKTTPPVLDSDGSFFLVSKLTVDKSRWQQGNVFSCSVLHEALHSHYTQKSLSLSPG	0.0158	0.0531	0.0645	0.0732	0.0263	0.0741	0.036	0.0796	0.00434	0.0107	–	–	–	–
MX1068 (trispecific antibody) chain 1: EIVMTQSPAILSVSPGERATLSCRASQSVAINLAWYQQKPGQAPRLLIYAASSRATGIPGRFSGSGSETNFTLTISSLQSGDFAVYYCQQYITWPPSYTFGQGTKLEIKGGSSGQTVVTQEPSFSVSPGGTVTLTCGLSSGSVSTAYFPSWYQQTPGQAPRTLIYGTNTRSSGVPDRFSGSILGNKAALTITGAQADDESDYYCVLYMGRGIVVFGGGTKLTVLGGGGSGGSGSGGGGSASGSGQVQLVESGGGVVQPGRSLRLSCAASGFTLSSYGMHWVRQAPGKGLEWVAVISYDGSNKYYVDSVKGRFTISRDNSKNTLYLQMNSLRAEDTAVYYCRWAYWELLPDYYYGMDVWGQGTTVTVSSGGSSGEVQLVESGGALIQPGGSLRLSCAASGIIVSANYMSWVRQAPGKGLEWVSVIYSGGSTFYADSVKGRFTISRDNSKNTLYLEMNSLRAEDTAVYYCARDAPILGVSDWGQGTLVTVSSASGGSGDKTHTCPPCPAPELLGGPSVFLFPPKPKDTLMISRTPEVTCVVVDVSHEDPEVKFNWYVDGVEVHNAKTKPREEQYNSYVVSVLTVLHQDWLNGKEYKCKVSNKALPAPIEKTISKAKGQPREPQVYTLPPCRDELTKNQVSLWCLVKGFYPSDIAVEWESNGQPENNYKTTPPVLDSDGSFFKKLTVDKSRWQQGNVFSCSVLHEALHSHYTQKSLSLSPG chain 2: DTVMTQSPLSLPVTPGEPASISCRSSQSLLNSNGYNYLDWYVQKPGQSPQLLIYLGSNRASGVPDRFSGSGSGTDFTLKISRVEAEDVGVYYCMQPLQTPLFTFGPGTKVEIKGGSSGQTVVTQEPSFSVSPGGTVTLTCGLSSGSVSTAYFPSWYQQTPGQAPRTLIYGTNTRSSGVPDRFSGSILGNKAALTITGAQADDESDYYCVLYMGRGIVVFGGGTKLTVLGGGGSGGSGSGGGGSASGSGQVQLVESGGGVVQPGRSLRLSCAASGFTLSSYGMHWVRQAPGKGLEWVAVISYDGSNKYYVDSVKGRFTISRDNSKNTLYLQMNSLRAEDTAVYYCRWAYWELLPDYYYGMDVWGQGTTVTVSSGGSSGQVTLRESGPALVKPTQTLTLTCTFSGFSLSTRGVCVSWIRQPPGKALEWLAFIDWDDDKYYNTSLKTRLTISKDTSKNQVVLTMTNVHPVDTATYYCARISSHHGSSWCTTFDYWGQGALVTVSAASGGSGDKTHTCPPCPAPELLGGPSVFLFPPKPKDTLMISRTPEVTCVVVDVSHEDPEVKFNWYVDGVEVHNAKTKPREEQYNSYVVSVLTVLHQDWLNGKEYKCKVSNKALPAPIEKTISKAKGQPREPQVCTLPPSRDELTKNQVSLSCAVKGFYPSDIAVEWESNGQPENNYKTTPPVLDSDGSFFLVSKLTVDKSRWQQGNVFSCSVLHEALHSHYTQKSLSLSPG	0.0113	0.0295	0.0379	0.117	0.0152	0.0469	0.064	0.226	0.0076	0.025	–	–	–	–
MX1019 (antibody) EIVMTQSPAILSVSPGERATLSCRASQSVAINLAWYQQKPGQAPRLLIYAASSRATGIPGRFSGSGSETNFTLTISSLQSGDFAVYYCQQYITWPPSYTFGQGTKLEIKGGGGSGGSGSGGGGSASGSGEVQLVESGGALIQPGGSLRLSCAASGIIVSANYMSWVRQAPGKGLEWVSVIYSGGSTFYADSVKGRFTISRDNSKNTLYLEMNSLRAEDTAVYYCARDAPILGVSDWGQGTLVTVSSASGGSGDKTHTCPPCPAPELLGGPSVFLFPPKPKDTLMISRTPEVTCVVVDVSHEDPEVKFNWYVDGVEVHNAKTKPREEQYNSYVVSVLTVLHQDWLNGKEYKCKVSNKALPAPIEKTISKAKGQPREPQVYTLPPSRDELTKNQVSLTCLVKGFYPSDIAVEWESNGQPENNYKTTPPVLDSDGSFFKKLTVDKSRWQQGNVFSCSVLHEALHSHYTQKSLSLSPG	–	–	–	–	–	–	–	–	–	–	0.0131	0.0206	0.0142	0.0245

— patent publication US20240109955A1 (published 2024)
